A mixed list of measured activities; the numbers were collected in NIAID ChemDB.

All rows: growth or infection tests; species: HIV-2

Inhibition is in % at the dose shown (toxicity tests: loss of growth or viability). Rows are shuffled and stem from different studies. Blank or dashed fields: not listed here. ECn is the concentration giving n% inhibition of infection, replication or growth.

SMILES,strain or isolate,cells,method,endpoint,tested at,result
O=C1[C@@H](Cc2ccccc2)NC(=S)N1Cc1ccccc1,,MT-4,cytopathic effect / XTT,inhibition,0.1 µg/mL,0%
CCCCCCCCCC(=O)Oc1ccc(COP(=O)(OCc2ccc(OC(=O)CCCCCCCCC)cc2)OP(=O)(O)OC[C@@H]2C=C[C@H](n3cc(C)c(=O)[nH]c3=O)O2)cc1,ROD,CEM/TK-,syncytia / microscopy,EC50,,0.11 µM
O=C(Nc1sccc1S(=O)(=O)c1ccccc1)c1ccccc1,ROD,CEM + CEM/O,cytopathic effect / MTT,EC50,,>40 µg/mL
O=C(NCCc1ccccc1)Nc1nc2ccccc2s1,,MT-4,RT activity,inhibition,10 µg/mL,84%
C[n+]1cn(-c2cn(C(O)CCCP(=O)(O)O)nn2)c(=O)[nH]c1=O,ROD,CEM,,inhibition,100 µM,0%
COC(=O)CC(=O)Nc1sccc1S(=O)(=O)c1ccc(C)cc1,ROD,CEM + CEM/O,cytopathic effect / MTT,EC50,,>8 µg/mL
CCOP(=O)(CCCC(O)n1cc(-n2c[n+](C)c(=O)[nH]c2=O)nn1)OCC,ROD,CEM,,inhibition,100 µM,0%
N#Cc1csc(NC(=O)NCCc2ccccc2)n1,,MT-4,cytopathic effect / XTT,inhibition,10 µg/mL,0%
COC(=O)c1ccccc1S(=O)(=O)c1ccsc1NC(=O)C(F)(F)F,ROD,CEM + CEM/O,cytopathic effect / MTT,EC50,,>20 µg/mL
CCCCCCCCCCCCCCCC(=O)Oc1ccc(COP(=O)(OCc2ccc(OC(=O)CCCCCCCCCCCCCCC)cc2)OP(=O)(O)OC[C@@H]2C=C[C@H](n3cc(C)c(=O)[nH]c3=O)O2)cc1,ROD,CEM/TK-,syncytia / microscopy,EC50,,0.99 µM
CCOP(=O)(CC(O)n1cc(N2C=CC(NC(C)=O)NC2=O)nn1)OCC,ROD,,,inhibition,100 µM,0%
O=C1[C@@H](Cc2ccccc2)NC(=S)N1c1ccccc1,,MT-4,cytopathic effect / XTT,inhibition,100 µg/mL,80%
CCOP(=O)(CCCn1cc(C2N=C3C(N)=NC=NC3N2C)nn1)OCC,ROD,CEM,,inhibition,100 µM,0%
Nc1sccc1S(=O)(=O)c1ccc(Cl)cc1,ROD,CEM + CEM/O,cytopathic effect / MTT,EC50,,>20 µg/mL
CCOP(=O)(CC(O)n1cc(C2N=C3C(N)=NC=NC3N2C)nn1)OCC,ROD,,,inhibition,100 µM,0%
O=C(NCCc1ccccc1)Nc1nc(C(F)(F)F)cs1,,MT-4,cytopathic effect / XTT,inhibition,0.1 µg/mL,21%
Cc1cn([C@H]2C=C[C@@H](CO)O2)c(=O)[nH]c1=O,ROD,CEM/TK-,syncytia / microscopy,EC50,,173 µM
O=c1ccn(-c2cn(C(O)CP(=O)(O)O)nn2)c(=O)[nH]1,ROD,CEM,,inhibition,100 µM,0%

Again, the opening 2 rows:

SMILES | strain or isolate | cells | method | endpoint | tested at | result
O=C1[C@@H](Cc2ccccc2)NC(=S)N1Cc1ccccc1 |  | MT-4 | cytopathic effect / XTT | inhibition | 0.1 µg/mL | 0%
CCCCCCCCCC(=O)Oc1ccc(COP(=O)(OCc2ccc(OC(=O)CCCCCCCCC)cc2)OP(=O)(O)OC[C@@H]2C=C[C@H](n3cc(C)c(=O)[nH]c3=O)O2)cc1 | ROD | CEM/TK- | syncytia / microscopy | EC50 |  | 0.11 µM